The record followed here is patent US7666997 (Dana-Farber, dated 2010).

For the test, the target named is SV40 large T antigen (SV40, UniProt P03070 1-708).

B1: HA-tagged NBS-1α (other, not shown: small tags and cut ends)
chain: MAQSTATSPDGGTTFEHLWSSLEPDSTYFDLPQSSRGNNEVVGGTDSSMDVFHLEGMTTSVMAQFNLLSSTMDQMSSRAASASPYTPEHAASVPTHSPYAQPSSTFDTMSPAPVIPSNTDYPGPHHFEVTFQQSSTAKSATWTYSPLLKKLYCQIAKTCPIQIKVSTPPPPGTAIRAMPVYKKAEHVTDVVKRCPNHELGRDFNEGQSAPASHLIRVEGNNLSQYVDDPVTGRQSVVVPYEPPQVGTEFTTILYNFMCNSSCVGGMNRRPILIIITLEMRDGQVLGRRSFEGRICACPGRDRKADEDHYREQQALNESSAKNGAASKRAFKQSPPAVPALGAGVKKRRHGDEDTYYLQVRGRENFEILMKLKESLELMELVPQPLVDSYRQQQQLLQRPSHLQPPSYGPVLSPMNKVHGGMNKLPSVNQLVGQPPPHSSAATPNLGPVGPGMLNNHGHAVPANGEMSSSHSAQSMVSGSHCTPPPPYHADPSLVSFLTGLGCPNCIEYFTSQGLQSIYHLQNLTIEDLGALKIPEQYRMTIWRGLQDLKQGHDYSTAQQLLRSSNAATISIGGSGELQRQRVMEAVHFRVRHTITIPNRGGPGGGPDEWADFGFDLPDCKARKQPIKEEFTEAEIH
B1: the binding result was “no binding”.
